Data from publication PMC12613110, “Anti-Trypanosoma cruzi Effects of Sesquiterpenoids from Branches of Drimys brasiliensis (Winteraceae)” (ACS Omega, 2025).
“And” between values parts separate entries of the source, which are not always exact repeats. Equal values may be shown once.

Legend:
[1] = tested on: intracellular amastigote forms of T. cruzi; experiment: Activity against intracellular amastigote forms of T. cruzi in infected peritoneal macrophages (48 h); format: cell-based, Trypanosoma cruzi; details: Selectivity Index, NCTC CC50 vs amastigote EC50
Experimental: (§1) The trypomastigote forms of T. cruzi (Y strain) were maintained in culture using Rhesus monkey kidney cells (LLC-MK2, ATCC CCL-7). These cells were cultured in RPMI-1640 medium supplemented with 2% fetal bovine serum (FBS) and incubated at 37 °C in a humidified atmosphere containing 5% CO2. Mouse fibroblast cells (NCTC clone L929, ATCC) and LLC-MK2 cells were similarly maintained in RPMI-1640 medium supplemented with 10% FBS under identical incubation conditions (37 °C, 5% CO2). Peritoneal macrophages were isolated from BALB/c mice by peritoneal lavage using RPMI-1640 medium supplemented with 10% FBS, followed by incubation at 37 °C in a 5% CO2 humidified atmosphere. In addition, the human monocytic cell line THP-1 (ATCC TIB-202) was cultured in RPMI-1640 medium supplemented with 20% FBS and […] glutamine, and maintained at 37 °C in a humidified 5% CO2 environment.
The antiparasitic activity of compounds 1–6 against the intracellular amastigote forms of T. cruzi was assessed using an in vitro infection model with peritoneal macrophages. Macrophages were seeded in 16-well plates at a density of 1 × 10^5 cells per well and incubated at 37 °C in a humidified atmosphere containing 5% CO2 for 24 h to promote adherence. Cells were then infected with trypomastigotes for 2 h under the same conditions to allow parasite internalization. Following infection, noninternalized parasites were removed by washing with RPMI-1640 medium. The infected macrophages were subsequently treated with serial dilutions of compounds 1–6 (150.0–1.6 μM) and incubated for an additional 48 h at 37 °C in 5% CO2 to evaluate their antitrypanosomal efficacy. ,
(§2) The CC50 and EC50 values were obtained from sigmoid dose–response curves using Graph-Pad Prims 6.0 software. All samples were tested in triplicate.

[2] = tested on: T. cruzi trypomastigotes (Y strain); experiment: Anti-T. cruzi activity against trypomastigote forms (resazurin reduction assay, 24 h); format: cell-based, Trypanosoma cruzi; details: Selectivity Index, NCTC CC50 vs trypomastigote EC50
Experimental: as §1
Compounds 1–6 were initially dissolved in DMSO and subsequently diluted in RPMI-1640 medium to the desired concentrations before being dispensed into 96-well microplates. T. cruzi trypomastigotes were then added at a density of 1 × 10^6 parasites per well. The plates were incubated for 24 h at 37 °C in a humidified atmosphere containing 5% CO2. Following incubation, the 50% effective concentration (EC50) was determined using the resazurin reduction assay. Absorbance readings were acquired at 570 nm using a microplate spectrophotometer (FilterMax F5). Untreated parasites served as the negative control, while benznidazole, a standard reference drug, was used as the positive control.
as §2

CC1(C)CCC[C@]2(C)[C@@H](C=O)C(C=O)=CC[C@@H]12 [Compound 5, polygodial]
SI amastigote [1]: 57.3 and >57.3 | SI trypomastigote [2]: >52.0

CC(C)=CCC[C@@H](C)C1=C[C@H](O)[C@@](C)(O)CC1 (relative stereo) [Compound 2, rel-(2S,3S,7R)-bisabola-1(6),10-diene-2,3-diol]
SI amastigote [1]: >8.3 | SI trypomastigote [2]: >2.3

O=C(Cn1ccnc1[N+](=O)[O-])NCc1ccccc1 [benznidazole, reference compound]
SI amastigote [1]: >36.4

CC(C)=CCC[C@@H](C)C1=CC(=O)[C@@](C)(O)CC1 (relative stereo) [Compound 1, rel-(3S,7R)-3-hydroxy-bisabola-1(6),10-dien-2-one]
SI amastigote [1]: >29.7 | SI trypomastigote [2]: >5.2

CC(C)=CCC[C@@H](C)[C@]12C=C[C@](C)(CC1)OO2 (relative stereo) [Compound 3, rel-(3S,6R,7R)-3,6-epidioxy-1,10-bisaboladiene]
SI trypomastigote [2]: >3.0

CC(C)=CCC[C@@H](C)c1ccc(C)cc1 [Compound 4, α-curcumene]
SI amastigote [1]: 41.1 and >41.1
